Measured values reported in article PMC4663627.
For at least one entry, the source does not settle the construct or the ends of the probe. For part of these data: A negative result means that nothing was seen under these conditions. Tags and fusion partners may be left off the protein sequences shown.

Key:
[1] = target: T1, p19 (GST-p19) (Cymbidium ringspot virus (CymRSV)) (UniProt P17457); experiment: SiNW-FET conductance; conditions: phosphate solution (240 uM NaH2PO4, 760 uM Na2HPO4), pH 7.4, Debye length 6.1 nm, temperature not given, recombinant protein, protein details: GST (pGEX-4T-1), N-terminal
T1 sequence (looked up, limits assumed): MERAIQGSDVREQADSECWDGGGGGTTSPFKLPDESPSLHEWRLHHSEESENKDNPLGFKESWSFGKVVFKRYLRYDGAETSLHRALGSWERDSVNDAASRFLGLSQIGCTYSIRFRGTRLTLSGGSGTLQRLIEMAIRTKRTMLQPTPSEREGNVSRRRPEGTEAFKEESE

[2] = target: T1, p19 (GST-p19) (Cymbidium ringspot virus (CymRSV)); experiment: fluorescence imaging on protein micropatterns; conditions: phosphate solution (240 uM NaH2PO4, 760 uM Na2HPO4), pH 7.4, Debye length 6.1 nm; temperature not given; recombinant protein; protein details: GST (pGEX-4T-1), N-terminal; label: 5'-FITC (Fig. S4, Methods state Cy5)

Does “CGTACGCGGAATACTTCGATT / TCGAAGTATTCCGCGTACGTT [ds-sDNA-0]” bind ([1]; 1 uM DNA)?
Result: no binding

Does “CGUACGCGGAAUACUUCGAUU / UCGAAGUAUUCCGCGUACGUU [FITC-ds-sRNA (21-nt)]” bind [2]?
Result: binds

Does CGUACGCGGAAUACUUCGAUU [ss-sRNA-0] bind ([1]; 1 uM RNA, 5'-phosphate)?
Result: no binding
